Data taken from article PMC3566180, “Glucose 6P Binds and Activates HlyIIR to Repress Bacillus cereus Haemolysin hlyII Gene Expression” (PLoS ONE, 2013).

Target: HlyIIR (Bacillus cereus Bt407) (UniProt Q7X506)
Experiment: ITC
Conditions: ITC200, 20 C, protein storage buffer (composition and pH not given), 28 uM HlyIIR in cell, 1.25 uM DNA injected (20 x 2 ul), recombinant protein, probe letters rebuilt from the primers and the genome

For “GGAAATAATGTATCTGAATATAGGCTGTAATAAGTAATTGAAAATATAGTAATTCTCGAAATGAAGAATTCTATAATTTTTTTGCAGTTTTTTAAACAACAATTTTAAATTTGTATTTAAAATTGTTGTTTAAATCGTTATTTTATGTTTTAATAATGTTGATAATAGTTATCAATAATAGTGAGAGGAAGATTAGTGAAACATGTG (double strand) [hlyII promoter fragment (220 bp)]”, the Kd (arabinose) was 0.11 µM, the Kd (glucose 6P (1.7%)) was 0.0287 µM and the Kd (no glucose 6P (data not shown)) was 0.11 µM.

For at least one entry, the source does not settle the construct or the ends of the probe.
